Results of unrelated studies side by side (data: NIAID ChemDB).

All rows: growth or infection tests; agent: HIV-1; read by: p24; endpoint: EC50

Two numbers with a dash give a range or band.

compound | strain or isolate | conditions | cell line | mutations | result
Cc1cn([C@H]2C[C@H](N=[N+]=[N-])[C@@H](CO)O2)c(=O)[nH]c1=O | JR-FL R5 | - | PBMC | - | 0.01 µM
COc1ccc(CN[C@@H](C(=O)N[C@H]2c3ccccc3C[C@H]2O)[C@H](O)[C@H](Cc2ccccc2)NC(=O)[C@@H](NC(=O)OCc2ccccc2)C(C)(C)C)cc1 | IIIB | - | HuT-78 + HUT 78 | - | 0.12 µM
CCN(c1ncccc1NC(C)(C)C)C1CCN(C(=O)c2cc3cc(NS(C)(=O)=O)ccc3[nH]2)CC1 | IIIB | - | - | - | 0.47 ± 0.04 µM
Fc1ccc([C@@H]2CCNC[C@H]2COc2ccc3c(c2)OCCO3)cc1 | IIIB | - | MOLT-3 | - | >4 µg/mL
CCC(C)[C@H](NC(=O)[C@H](C(C)C)[C@@H](O)[C@H](O)[C@H](CC1CCCCC1)NC(=O)c1ccccc1OCSc1ccccc1)C(=O)NCc1nc2ccccc2[nH]1 | D34 | - | PBMC | - | <0.001 µM
CNCCC=C1c2ccccc2CCc2ccccc21 | IIIB | - | MOLT-3 | - | >5 µg/mL
Cc1cn([C@@H]2O[C@H](CO)C=C2F)c(=O)[nH]c1=O | - | - | CEM | - | 10–100 µM
CC(C)c1nc(CN(C)C(=O)N[C@H](C(=O)N[C@@H](Cc2ccccc2)C[C@H](O)[C@H](Cc2ccccc2)NC(=O)OCc2cncs2)C(C)C)cs1 | NL4-3 | - | MT-4 | PR-D30N M46I A71V | <0.04 µM
CCC(C)[C@H](NC(=O)[C@H](C(C)C)[C@@H](O)[C@H](O)[C@H](CC1CCCCC1)NC(=O)CCOCCOc1ccccc1)C(=O)NCc1nc2ccccc2[nH]1 | D34 | - | PBMC | - | ~0.001 µM
Cc1cccc(NC(=S)NC[C@H](C)c2ccccc2)n1 | NNRTI-resistant (RT Y181C) A17 | - | PBMC | RT-Y181C | 1.4 µM
CCC[C@@]1(CCc2ccccc2)CC(O)=C([C@H](CC)c2cccc(NS(=O)(=O)c3ccc(C(F)(F)F)cn3)c2)C(=O)O1 | Clinical isolates | - | PBMC | - | 0.224 µM
CSc1nccc(-c2ccc(S(=O)(=O)N3CCN(C[C@@H](O)C[C@@H](Cc4ccccc4)C(=O)NCc4c(C)cc(O)cc4C)[C@H](C(=O)NC(C)(C)C)C3)s2)n1 | IIIB | - | MT-4 | - | <0.063 µM
CC(=O)c1ccc(C)cc1NC(C(N)=O)c1c(Cl)cccc1Cl | clinical isolate A018A AZT-sensitive | - | MT-4 | - | 0.031 µM
Oc1ccc(/C=C/c2cc(O)cc(O)c2)cc1 | EJC-R1 | clinical isolate | PBMC | - | >10 µM
CN1CC[C@H](c2ccccc2)[C@@H](COc2ccc3c(c2)OCCO3)C1 | IIIB | - | MOLT-3 | - | >4 µg/mL
Cc1ccc(NC(=S)NC[C@H](C)c2ccccc2)nc1 | NNRTI-resistant (RT Y181C) A17 | - | PBMC | RT-Y181C | 1.08 µM
OCCN1CCN(CC/C=C2/c3ccccc3Sc3ccc(C(F)(F)F)cc32)CC1 | IIIB | - | MOLT-3 | - | >2 µg/mL
CC(C)(C)NC(=O)[C@@H]1CN(S(=O)(=O)c2cccs2)CCN1C[C@@H](O)C[C@@H](Cc1ccccc1)C(=O)N[C@H]1c2ccccc2C[C@H]1O | IIIB | - | MT-4 | - | <0.031 µM
CC(C)=CCOc1c2ccoc2cc2oc(=O)ccc12 | IIIB | - | H9 | - | 40.7 µM
CCOC(=O)[C@H](CS)NC(=O)CC[C@H](N)C(=O)O | IIIB | - | H9(HIV-1(IIIB)) + H9 | - | 400 µM
CC(C)(C)NC(=O)[C@@H]1C[C@@H]2CCCC[C@@H]2CN1C[C@@H](O)[C@H](Cc1ccccc1)NC(=O)[C@H](CC(N)=O)NC(=O)c1ccc2ccccc2n1 | BAL R5 | - | PBMC | - | 0.011 µM
C/C=C(/C)C(=O)O[C@@H]1c2c(ccc3ccc(=O)oc23)OC(C)(C)[C@@H]1OC(C)=O | IIIB | - | H9 | - | 4.6 µM
CCCCN1C(=O)[C@@H]([C@H](O)C2CCCCC2)NC(=O)C12CCN(Cc1ccc(Oc3ccc(C(=O)O)cc3)cc1)CC2 | BAL R5 | - | PBMC | - | 0.0004 µM
C[C@H]1O[C@@H]2OCCC[C@@H]2[C@@H]1OC(=O)N[C@@H](Cc1ccccc1)[C@H](O)CN1C[C@H]2CCCC[C@H]2C[C@H]1C(=O)NC(C)(C)C | MM | - | PBMC | PR-L10I K43T M46I I54V L63P A71V V82A L90M Q92K | >1 µM
C[C@@H](CNC(=S)Nc1ccccn1)c1ccccc1 | NNRTI-resistant (RT Y181C) A17 | - | PBMC | RT-Y181C | 2.34 µM
c1cc(CN2CCCNCCNCCCNCC2)ccc1CN1CCCNCCNCCCNCC1 | DJ258 CLADE A R5 | - | PBMC | - | >0.5 µM
c1cc(CN2CCCNCCNCCCNCC2)ccc1CN1CCCNCCNCCCNCC1 | IIIB | - | PBMC | - | 0.01 µg/mL
C[C@@H]1O[C@@H]2OCCC[C@@H]2[C@@H]1OC(=O)N[C@@H](Cc1ccccc1)[C@H](O)CN1C[C@H]2CCCC[C@H]2C[C@H]1C(=O)NC(C)(C)C | MM | - | PBMC | PR-L10I K43T M46I I54V L63P A71V V82A L90M Q92K | >1 µM
NC(=O)P(=O)(O)OC[C@H]1O[C@@H](n2ccc(=O)[nH]c2=O)[C@H](O)[C@@H]1O | - | - | H9 | - | 5.5 µM
CC(=O)O[C@@H]1[C@H](OC(=O)CC(C)C)c2c(ccc3ccc(=O)oc23)OC1(C)C | IIIB | - | U-937 | - | 1.5 µM
CCCN(C)C(=O)Oc1nsnc1-c1c(Cl)ccc(N)c1Cl | clinical isolate A012D AZT-resistant | - | MT-4 | - | 0.0089 µM
O=c1ccn([C@@H]2O[C@H](COP(=O)(O)CCl)[C@@H](O)[C@H]2O)c(=O)[nH]1 | - | - | H9 | - | 5.5 µM
O=C1N(Cc2ccc(CO)cc2)[C@H](Cc2ccccc2)[C@H](O)[C@@H](O)[C@@H](Cc2ccccc2)N1Cc1ccc(CO)cc1 | Clinical isolate D2 | - | PBMC | - | 0.018 µM
Nc1ccn(C[C@@H](CO)OCP(=O)(O)O)c(=O)n1 | H112 | - | CD4+HELA + HeLa | - | 3 µM
CCC(C)[C@H](NC(=O)[C@H](C(C)C)[C@@H](O)[C@H](O)[C@H](CC1CCCCC1)NC(=O)[C@H](Cc1cnc[nH]1)NC(=O)COc1cccc2ccccc12)C(=O)NCc1ccccn1 | D34 | - | PBMC | - | 0.001–0.01 µM
Clc1nc(Cl)c2[nH]cnc2n1 | - | - | CD4+HELA + HeLa | - | 2.2 µM
C[C@@H](CNC(=S)Nc1ccc(Cl)cn1)c1ccccc1 | NNRTI-resistant (RT Y181C) A17 | - | PBMC | RT-Y181C | 0.26 µM
C=CCN(C(=O)OCc1ccc([N+](=O)[O-])cc1)C1CCN(C[C@H]2CN(C(=O)c3ccccc3Cl)C[C@@H]2c2ccccc2)CC1 | BaL | - | PBMC | - | <0.031 µM
COc1ccc(OC[C@@H]2CNCC[C@H]2c2ccc(F)cc2)cc1 | IIIB | - | MOLT-3 | - | >4 µg/mL
CC(C)CN(C[C@@H](O)[C@H](Cc1ccccc1)NC(=O)O[C@@H]1[C@@H]2CCCO[C@@H]2O[C@H]1C)S(=O)(=O)c1ccc(N)cc1 | MM | - | PBMC | PR-L10I K43T M46I I54V L63P A71V V82A L90M Q92K | 0.1 µM
CCC(NC(=S)Nc1ccc(C)cn1)c1ccccc1 | IIIB | - | PBMC | - | 0.005 µM
COc1cc2cc(Oc3ccc4ccc(=O)oc4c3)c(=O)oc2cc1O | IIIB | - | H9 | - | >22.7 µM
Cc1cn([C@@H]2O[C@H](CO)C[C@@H]2F)c(=O)[nH]c1=O | - | - | CEM | - | >100 µM
O=c1[nH]cnc2c1ncn2[C@H]1CC[C@@H](CO)O1 | Isolate 2748 | - | PBMC | - | 6.47 µM
O=S(=O)(O)c1cc(N=C=S)ccc1/C=C/c1ccc(N=C=S)cc1S(=O)(=O)O | RF | - | C8166 | - | <100 µg/mL
CCO/N=C(\c1ccc(Br)cc1)C1CCN(C2(C)CCN(C(=O)c3c(C)cc[n+]([O-])c3C)CC2)CC1 | NL4-3 X4 | - | PBMC | - | >1 µM

For reference, 2 entries again:

compound | strain or isolate | conditions | cell line | mutations | result
CC(C)CN(C[C@@H](O)[C@H](Cc1ccccc1)NC(=O)O[C@@H]1[C@@H]2CCCO[C@@H]2O[C@H]1C)S(=O)(=O)c1ccc(N)cc1 | MM | - | PBMC | PR-L10I K43T M46I I54V L63P A71V V82A L90M Q92K | 0.1 µM
Oc1ccc(/C=C/c2cc(O)cc(O)c2)cc1 | EJC-R1 | clinical isolate | PBMC | - | >10 µM

Blank or dashed fields: not listed here. ECn: concentration that inhibits the pathogen or its effect by n%. Rows are shuffled and stem from different studies.